Consider 1 substance from US20260273042A1.

The test addresses BG505 SOSIP T332N gp140 (soluble trimer) (HIV (strain BG505)). Kind of test: SPR (ligand and analyte not given).

A word on the Kd: it is the constant that tells how readily two partners part at equilibrium. For PGT128 (antibody), the Kd was 17 nM.
